Measured data: PubChem BioAssay AID504761 (Drosophila RNAi Screening Center, 2011)
The screen tested about 22,000 reagents; shown is an unselected part of those that have a named target and a result. Over the whole deposit, 116 (0.52%) got an active call. 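Calls depend on retest data that are not deposited; infection was ranked per plate without normalising between plates; the unit of the infection score is not given.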 Raw values vary from plate to plate and are shown uncorrected. Reagents against one gene are numbered here. No sequences are given here. The record does not give: the amount of reagent, the time to read-out.

Test: 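Genome-wide fly cell screen for genes dengue virus requires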 (primary screen)
Cells: D.Mel-2 cells from Drosophila
Knock-down reagent: long dsRNA against Drosophila genes
Challenge: infection with dengue virus type 2; dose and infection time not stated
Measured: 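Per well on two replicate plates, imaging gave the percent of cells positive for viral envelope protein, ranked by infection, and a nuclear count of cells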
Reading the numbers: infection score: higher = more virus-infected cells; cell count: higher = more cells in the well
Rule for the call: 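Low infection ranks in the two replicates (chance level up to 0.065) followed by a retest with a 1.5-fold or larger significant decrease, p below 0.05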
Meaning of the calls: active = confirmed: knock-down lowers infection; inactive = not picked or not confirmed

| gene knocked down | dsRNA no. | infection score, replicate 1 | infection score, replicate 2 | cell count, replicate 1 | cell count, replicate 2 | Call |
| --- | --- | --- | --- | --- | --- | --- |
| CG5909 | 1 | 2.22 | 5.14 | 6390 | 6387 | inactive |
| CG5909 | 2 | 18.5 | 34.5 | 4546 | 5882 | inactive |
| ImpE3 | 1 | 4.14 | 1.54 | 6792 | 6513 | inactive |
| CG12698 | 1 | 2.49 | 6.84 | 6384 | 6268 | inactive |
| CG12698 | 2 | 13.2 | 5.78 | 5945 | 6042 | inactive |
| Vps39 | 1 | 7.04 | 3.16 | 5897 | 6523 | inactive |
| ppk20 | 1 | – | 6.29 | 393 | 1621 | inactive |
| ppk20 | 2 | 16.1 | 11.8 | 5268 | 4618 | inactive |
| CG1902 | 1 | 13.8 | 2.3 | 5532 | 6093 | inactive |
| CG9782 | 1 | 2.83 | 2.29 | 6014 | 5460 | inactive |
| CG9782 | 2 | 4.55 | 22.7 | 6480 | 6186 | inactive |
| CG9782 | 3 | 6.42 | 10.3 | 6857 | 6548 | inactive |
| hll | 1 | 18.5 | 13.5 | 6144 | 5788 | inactive |
| ms(3)76Ba | 1 | 2.17 | 1.33 | 6370 | 6034 | inactive |
| Bin1 | 1 | 6.85 | 13.9 | 6454 | 1019 | inactive |
| GstE7 | 1 | 18.7 | 2.95 | 5599 | 1390 | inactive |
| Rbp4 | 1 | 1.32 | 0.74 | 6223 | 6641 | inactive |
| Rbp4 | 2 | 11 | 35.5 | 6712 | 5990 | inactive |
| CG5662 | 1 | 3.25 | 1.25 | 6889 | 7919 | inactive |
| CG12268 | 1 | 1.71 | 1.28 | 5500 | 6466 | inactive |
| CG12268 | 2 | – | 2.04 | 260 | 637 | inactive |
| CG13847 | 1 | 3.7 | 8.09 | 6602 | 1928 | inactive |
| CG31251 | 1 | 2.2 | 0.57 | 6229 | 6834 | inactive |
| CG12241 | 1 | 4.95 | 21.6 | 1475 | 5686 | inactive |
| CG12241 | 2 | 4.45 | 2.44 | 6605 | 6242 | inactive |
| Klp67A | 1 | 0.62 | 3.3 | 5454 | 5248 | inactive |
| Klp67A | 2 | 5.3 | 5.28 | 6042 | 5493 | inactive |
| CG11168 | 1 | 2.92 | 7.77 | 6260 | 6432 | inactive |
| ast | 1 | 2.61 | 3.98 | 6430 | 6565 | inactive |
| ast | 2 | 13.1 | 5.99 | 5981 | 6742 | inactive |
| CG6231 | 1 | 7.12 | 0.86 | 5979 | 7077 | inactive |
| BtbVII | 1 | 0.41 | 2.29 | 5815 | 5891 | inactive |
| BtbVII | 2 | 10.7 | 7.22 | 7226 | 7440 | inactive |
| BtbVII | 3 | 6.24 | 8.86 | 6381 | 5600 | inactive |
| CG3546 | 1 | 3.1 | – | 1257 | 284 | inactive |
| CG3546 | 2 | 5.75 | 6.91 | 6499 | 6589 | inactive |
| LManI | 1 | 23.5 | 23.9 | 5355 | 4687 | inactive |
| LManI | 2 | 3.09 | 8.77 | 6495 | 5015 | inactive |
| Ms | 1 | 5.57 | 7.55 | 6355 | 6745 | inactive |
| Ms | 2 | 14.5 | 12.3 | 4779 | 6421 | inactive |
| CG43775 | 1 | 17.3 | 12.3 | 5866 | 3534 | inactive |
| esn | 1 | 1.62 | 0.86 | 6125 | 5944 | inactive |
| esn | 2 | 3.98 | 5.32 | 5856 | 6186 | inactive |
| PolA1 | 1 | 6.17 | 8.04 | 3921 | 3781 | inactive |
| PolA1 | 2 | 31 | 13.6 | 3539 | 3818 | inactive |
| Idua | 1 | 11.5 | 7.31 | 6528 | 5883 | inactive |
| CG33768 | 1 | 5.16 | 6.44 | 6673 | 6923 | inactive |
| Zaf1 | 1 | 3.97 | 4.56 | 6355 | 5938 | inactive |
| CG10694 | 1 | 5.11 | 5.65 | 6402 | 6828 | inactive |
| Cht8 | 1 | 7.11 | 5.23 | 6185 | 6686 | inactive |
| Ote | 1 | 8.69 | 7.09 | 6719 | 6758 | inactive |
| PDZ-GEF | 1 | 6.41 | 13.3 | 6883 | 6106 | inactive |
| Usp16-45 | 1 | 3.25 | 5.15 | 6307 | 6776 | inactive |
| Usp16-45 | 2 | 1.32 | 3.19 | 6601 | 6576 | inactive |
| Fnta | 1 | 14.5 | 9.44 | 5977 | 2669 | inactive |
| Fnta | 2 | 21.4 | 8.1 | 5693 | 5542 | inactive |
| Noc3 | 1 | 5.97 | 12.6 | 5613 | 5173 | inactive |
| flap | 1 | 4.73 | 2.6 | 5943 | 6011 | inactive |
| flap | 2 | 5.98 | 27.2 | 6249 | 5252 | inactive |
| MFS15 | 1 | 1.37 | 0.67 | 6045 | 6735 | inactive |
| MFS15 | 2 | 14.2 | 13 | 5992 | 3738 | inactive |
| saturn | 1 | 1.31 | 4.87 | 5892 | 6217 | inactive |
| saturn | 2 | 24.1 | 8.06 | 5810 | 3188 | inactive |
| CG6149 | 1 | 1.67 | 2.47 | 5627 | 5797 | inactive |
| stumps | 1 | 3.37 | 2.04 | 6105 | 6369 | inactive |
| stumps | 2 | 9.03 | 10.1 | 7212 | 6816 | inactive |
| MFS16 | 1 | 16.4 | 24.4 | 4780 | 5197 | inactive |
| MFS16 | 2 | 1.22 | 6.59 | 6326 | 6286 | inactive |
| CG31223 | 1 | 9.25 | 11.1 | 6066 | 6478 | inactive |
| Cyp316a1 | 1 | 4.9 | 1.5 | 6158 | 5856 | inactive |
| Cyp316a1 | 2 | 6.2 | 8.2 | 5270 | 5855 | inactive |
| CG13465 | 1 | 1.62 | 0.86 | 6191 | 6401 | inactive |
| CG12426 | 1 | 10.5 | 23.7 | 3926 | 4576 | inactive |
| CG6071 | 1 | 1.72 | 3.66 | 6032 | 5990 | inactive |

Ordered by “infection score, replicate 2” (low to high): 4 of the entries above.
| gene knocked down | dsRNA no. | infection score, replicate 1 | infection score, replicate 2 | cell count, replicate 1 | cell count, replicate 2 | Call |
| --- | --- | --- | --- | --- | --- | --- |
| CG13465 | 1 | 1.62 | 0.86 | 6191 | 6401 | inactive |
| CG6071 | 1 | 1.72 | 3.66 | 6032 | 5990 | inactive |
| Cyp316a1 | 2 | 6.2 | 8.2 | 5270 | 5855 | inactive |
| CG12426 | 1 | 10.5 | 23.7 | 3926 | 4576 | inactive |
